Measured values from several laboratories, pooled; numbers as filed in NIAID ChemDB.

Common to all: tests on isolated targets

ICn: concentration for n% inhibition.

structure,method,tested at,target,mutations,measure,result
CN(C)CCCn1c2cc(=O)c(=O)cc-2sc2ccc(Cl)cc21,-,-,gp120,-,IC50,30 µg/mL
C[C@H](NC(=O)[C@H](CCCNC1CCc2ccccc21)NC(=O)c1ccc(CNCc2ncc[nH]2)cc1)c1cccc2ccccc12,radiometric,-,CXCR4,-,IC50,<0.1 µM
CCCCCCCCC[C@H]1CC2CCC3C(C(=O)OCCCCN=C(N)N)[C@@H](C)N=C(N1)N23,-,-,Protein kinase C,-,IC50,11 µM
Oc1cccc(O)c1O,flow cytometry,100 µg/mL,CD4,-,inhibition,32%
O=S(=O)(c1cccc2cnccc12)N1CCNCC1,nucleotide incorporation,0.8 µg/mL,Protein kinase C,-,inhibition,13.8%
C=C1CN(S(=O)(=O)c2ccc(Br)cc2)CCCN(Cc2ccccc2)CCCN(S(=O)(=O)c2ccc(Br)cc2)C1,-,-,CD4,-,IC50,1.77 µM
O=c1c(O)cc([C@H]2Oc3cc(O)cc(O)c3C[C@H]2O)cc2c([C@H]3Oc4cc(O)cc(O)c4C[C@H]3O)cc(O)c(O)c12,ELISA,20 µM,CXCR4,-,inhibition,13%
C=C1CN(S(=O)(=O)c2ccc(C)cc2)CCCN(CCC)CCCN(S(=O)(=O)c2ccc(C)cc2)C1,-,-,CD4,-,IC50,4.09 µM
O=S(=O)(c1cccc2cnccc12)N1CCNCC1,nucleotide incorporation,100 µg/mL,Protein kinase C,-,inhibition,64.4 ± 8%
C=C1CN(S(=O)(=O)c2ccc(C)cc2)CCCN(C(=O)OCC)CCCN(S(=O)(=O)c2ccc(C)cc2)C1,-,-,CD4,-,IC50,11.1 µM
O=C(O[C@H]1Cc2c(O)cc(O)cc2O[C@@H]1c1cc(O)c(O)c(O)c1)c1cc(O)c(O)c(O)c1,ELISA,20 µM,CXCR4,-,inhibition,22%
O=c1cc(-c2ccccc2)c2ccccc2[nH]1,-,-,Tat:TAR/LTR,-,IC50,20 µM
CC(C)CN(CCC[C@H](NC(=O)c1ccc(CNCc2ncc[nH]2)cc1)C(=O)N[C@@H](C)c1cccc2ccccc12)CC(C)C,radiometric,-,CXCR4,-,IC50,<0.1 µM
C=C1CN(S(=O)(=O)c2ccc(CBr)cc2)CCCN(Cc2ccccc2)CCCN(S(=O)(=O)c2ccc(CBr)cc2)C1,-,-,CD4,-,IC50,12.9 µM
O=C(O[C@@H]1Cc2c(O)cc(O)cc2O[C@@H]1c1cc(O)c(O)c(O)c1-c1c([C@H]2Oc3cc(O)cc(O)c3C[C@H]2OC(=O)c2cc(O)c(O)c(O)c2)cc(O)c(O)c1O)c1cc(O)c(O)c(O)c1,ELISA,-,CXCR4,-,IC50,>20 µM
C=C[C@@H]1CN(C(=O)c2ccc3ccn(C)c3c2)C[C@H]1CN1CCC(c2ccccc2)CC1,-,-,CCR3,-,IC50,0.0007 µM
O=C(O)Cc1ccc(O)c(O)c1,flow cytometry,20 µg/mL,CD4,-,inhibition,89%
Clc1cc(CN2CCCNCCNCCCNCC2)cc(Cl)n1,-,-,CXCR4,CXCR4-D182N,IC50,0.56 µM
C[C@H](NC(=O)[C@H](CCCN1CCCCCC1)NC(=O)c1ccc(CNCc2ncc[nH]2)cc1)c1cccc2ccccc12,radiometric,-,CXCR4,-,IC50,<0.1 µM
O=C(NCc1cccnc1)C(=O)N/N=C\c1ccc(-c2cccc(Cl)c2)o1,absorbance,-,Cyclophilin A,-,IC50,34.86 µM
Cn1c2ccccc2c(=O)c2c(O)cccc21,nucleotide incorporation,4 µg/mL,Protein kinase C,-,inhibition,51.7%
COCCNC(=O)[C@@H](NC(=O)[C@H](Cc1ccc(OC)c(OC)c1OC)C[C@H](O)[C@H](Cc1ccccc1)NC(=O)OC(C)(C)C)C(C)C,-,-,Cathepsin D,-,IC50,0.1 µM
C[C@@H]1Cc2c(-c3cc(-c4cc(-c5c(O)cc(O)c6c5C[C@@H](C)N[C@@H]6C)c5ccccc5c4O)c(O)c4ccccc34)c(O)cc(O)c2[C@@H](C)N1,-,-,Protein kinase C,-,IC50,36 µM
O=C(O)c1ccc(O)c(O)c1,flow cytometry,100 µg/mL,CD4,-,inhibition,9%
C[C@H](NC(=O)[C@H](CCCNC1CCCc2ccccc21)NC(=O)c1ccc(CNCc2ncc[nH]2)cc1)c1cccc2ccccc12,radiometric,-,CXCR4,-,IC50,<0.1 µM
C=C1CN(S(=O)(=O)c2ccc(C)cc2)CCCN(Cc2ccc[nH]2)CCCN(S(=O)(=O)c2ccc(C)cc2)C1,-,-,CD4,-,IC50,7.15 µM
CCOc1ccccc1N(CC(=O)Nc1ccc(S(=O)(=O)Nc2cccc(C(F)(F)F)c2)cc1)S(C)(=O)=O,absorbance,-,Cyclophilin A,-,IC50,14.45 µM
COc1ccnc2[nH]cc(C(=O)C(=O)N3CCN(C(=O)c4ccccc4)C[C@H]3C)c12,radiometric,-,gp120,-,IC50,~60 µM
COc1cc2ccccc2oc1=O,-,-,Tat:TAR/LTR,-,IC50,>100 µM
O=C1C=CC(=C(c2ccc(O)cc2)c2ccc(O)cc2)C=C1,flow cytometry,100 µg/mL,CD4,-,inhibition,0%
Cn1c2ccccc2c(=O)c2c(O)cccc21,nucleotide incorporation,0.8 µg/mL,Protein kinase C,-,inhibition,18%
CC1=C(CC/C(C)=C/CC/C(C)=C/CCC2=CCOC2=O)C(C)(C)CCC1=O,ELISA,-,p56lck tyrosine kinase,-,IC50,<500 µM
COc1c(-c2ccccc2)c2ccccc2[nH]c1=O,-,-,Tat:TAR/LTR,-,IC50,5 µM
O=C(CSc1nc2ccc(NC(=O)c3ccccc3C(=O)O)cc2s1)NCc1ccccc1,absorbance,-,Cyclophilin A,-,IC50,65.7 µM
C=C1CN(S(=O)(=O)c2ccc(C)cc2)CCCN(C2CCCC2)CCCN(S(=O)(=O)c2ccc(C)cc2)C1,-,-,CD4,-,IC50,8.29 µM
CCCCCCCCCC1N=C(N)N2CCCC2=C1C(=O)OCCCCN=C(N)N,-,-,Protein kinase C,-,IC50,9.6 µM
COc1ccc(-c2cc(C(=O)Nc3ccc(S(=O)(=O)Nc4cc(C)nc(C)n4)cc3)c3ccccc3n2)cc1,absorbance,-,Cyclophilin A,-,IC50,21.65 µM
C=CCN(C(=O)OCc1ccccc1)C1CCN(CCC(C)(c2ccccc2)C2Nc3ccccc3S(=O)(=O)N2)CC1,-,-,CCR2,-,IC50,>1 µM

Percent inhibition refers to the dose given; in toxicity tests it is the harm to the cells. Rows are shuffled and stem from different studies. An empty or dashed field is not shown.